# Source: article PMC4760761
# Construct, isoform or probe ends are uncertain for at least one entry. Where a protein sequence is shown, tags need not be part of it.
# Target: T1, CodY-6His (UniProt A0A0H3GGF1)
# T1 sequence (looked up, limits assumed): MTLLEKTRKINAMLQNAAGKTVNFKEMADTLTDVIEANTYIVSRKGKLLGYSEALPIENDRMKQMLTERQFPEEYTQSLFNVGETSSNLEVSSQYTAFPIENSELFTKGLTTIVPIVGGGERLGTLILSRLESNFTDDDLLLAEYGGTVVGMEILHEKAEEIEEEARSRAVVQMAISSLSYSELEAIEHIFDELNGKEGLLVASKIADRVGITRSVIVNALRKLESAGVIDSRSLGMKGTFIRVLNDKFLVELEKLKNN
# Test: EMSA
# Details: 10 mM BCAA, apparent Kd; EMSA: 20 mM Tris-Cl pH 8, 50 mM KCl, 2 mM MgCl2, 0.5 mM EDTA, 1 mM DTT, 0.05% NP-40, 5% glycerol, 25 ug/ml salmon sperm DNA, 4 ng DIG-DNA, 15 min room temperature; recombinant protein; protein details: 6xHis; label: DIG; probe letters rebuilt from the primers and the genome
sequence,measurement,value
ACAATCACATATCTCTCTATCCTATAGTATTATTGATTTTCTGTTTATTTTTATAATAACAATATATGTTAGTTGTGTAAAGGGAACGCGAGTAGGTCAAAAGGATTGGGTATGAAGAACCTTTTTTTGAGTTAAATAGAAAAATATAAATCGAATAATGAGAAGTTTTCCTTTGATACAGCTGTTACACTGGCTGTTTTTTTATTTTTACACACAATTTCATTTTTTAAAAAAAGTATAGATTTTTTCTGGATTTGGTGTAAAATTTTATATTGCAGTTACAAAAAACACTTTATTGATATATATTTTGAAAAAATGATTTATTTTTGTAATCTGATGAAGGGAGTGAAAGGTGAATTTACCTTACTTGAATGGAATATTTTTTGTCACTTTTAAAAATTATTGTACTTTTGGCAGTACTTGCGGGAATTTCTTATTTTTTAGTTAAGAAAAACAAGCAAGCGAATCGCACGAGAAAAAGCGAAAATGATCTAATAAAG (double strand) [fliN (LMRG_02874) upstream probe],Kd,26 nM
